This note sets out measurements from publication PMC4499131.

Sequences of proteins named here, by UniProt entry; tags and fusion partners are left off. A change or cut given only in a name is not applied to a line headed by its entry.
UniProt P03132: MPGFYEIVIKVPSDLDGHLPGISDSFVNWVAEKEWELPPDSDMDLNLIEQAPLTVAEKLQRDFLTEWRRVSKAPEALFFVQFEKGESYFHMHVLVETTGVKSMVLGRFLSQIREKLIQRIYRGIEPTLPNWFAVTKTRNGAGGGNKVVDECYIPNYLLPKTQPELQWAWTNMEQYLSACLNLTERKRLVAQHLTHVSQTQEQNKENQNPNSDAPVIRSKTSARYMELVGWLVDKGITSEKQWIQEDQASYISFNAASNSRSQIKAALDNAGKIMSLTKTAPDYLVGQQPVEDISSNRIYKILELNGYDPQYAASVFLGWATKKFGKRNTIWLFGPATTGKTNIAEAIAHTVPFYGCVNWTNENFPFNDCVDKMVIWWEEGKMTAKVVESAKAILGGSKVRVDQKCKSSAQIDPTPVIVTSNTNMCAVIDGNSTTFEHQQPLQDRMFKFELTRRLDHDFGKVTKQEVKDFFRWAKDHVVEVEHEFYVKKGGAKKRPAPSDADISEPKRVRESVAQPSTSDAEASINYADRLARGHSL

The exact form of at least one protein or probe is not confirmed.

In the series the target is MBP-Rep68 (Adeno-associated virus 2) (UniProt P03132). The series is described as follows: SPR. To be noted: 0.83 mM ATP, 10 mM Mg2+; recombinant protein; protein details: N-terminal MBP; label: 3'-biotin on strand 1.

In the case of “GATCAGTGATGGAGTTGGCCACTCCCTCTCTGCGCGCTCGCTCGCTCACTGAGGCC / CTAGGGCCTCAGTGAGCGAGCGAGCGCGCAGAGAGGGAGTGGCCAACTCCATCACT [AAV S1 dsDNA (deltaITR AAVS1 Rep binding site)]”, the binding result is listed as “binds”.
